# From the supplement of paper PMC9931576
# Human monoclonal antibodies against the spike receptor-binding domain (heavy:light variable regions). IC50 against pseudoviruses bearing the spike of naturally observed variants; lower = stronger; >10 µg/ml means not reached at the top dose. No active / inactive call. The stated detection limit is 0.0005 µg/ml; values near or below 0.001 µg/ml lie at the floor of the assay.
# B1: BD55-6277 (protein)
# chain 1: QVQLVESGGGVVQPGRSLRLSCAASGFTFSNFGMHWVRQAPGKGLEWLSVIWNDGSNKYYTESVKGRFTVSRDNSKNMLYLQINDLRAEDTAVYYCARDSPCSGPTCYFDYNWFDYWGQGTLVTVSS
# chain 2: EIALTQSPGTLSLSPGERAVLSCRASQSVSRNLAWYQQKPGQAPRLLIYDASNRATGIPARFSGSGSGTDFILTISSLEPEDFAVYYCQQRHTWPPAYTFGQGTKLEIK
# B2: BD55-6288 (protein)
# chain 1: QVQLQESGPGLVKPSGTLSLTCAVSGGSISSSSWWSWVRQPPGKGLEWIGEMYHSGSTNYNPSLKSRVTISVDRSKNHFSLKLTSVTAADTAVYYCARTTYYFDSSDSHLNSNPYYFDSWGQGTLVTVSS
# chain 2: QSVLTQPPSVSGAPGQRVTISCTGSSSNIGAGYDVHWYRQLPGTAPKLLIYGNTNRPSGVPDRFSGSQSGTSASLAITGLQAEDEGNYYCQSYDNSLSGFYVFGGGTKLTVL
# B3: BD55-1201 (protein)
# chain 1: EVQLVESGGGLVQSGRSLRLSCAASGFTFDDYAIHWVRQLPGKGLEWVSGISWNGGIIGYVDSVKGRYVISRDNAKNFLYLHMRNLRAEDSALYYCAKDVVPGDRNSYAFDIWGQGTMVTVSS
# chain 2: QSALTQPASVSGSPGQSITISCTGTSSDVGVYNYVSWYQHHPGKAPKLMIYDVSNRPSGVSHRFSGSKSGNTASLTISGLQAEDEADYYCSSYTSSDTVIFAGGTKLTVL
# B4: BD55-6295 (protein)
# chain 1: EVQLVESGGGLVQPGGSLRLSCAASGFTFTSYWMSWVRQSPGKGLEWVANINHDGNDRYYVDSVKGRFTISRDNAKNSLFLQMNSLRAQDTAVYYCARAPELEHQLLPPEYFQHWGQGTLVTVSS
# chain 2: SYELTQPPSVSVSPRQTARLTCSGKRLAMQYTHWYQQKPGQAPLLLIYKDRERPSGIPERFSGSSSGTTATLTISGVQAEDEADYYCQSADSSATSFVFGTGTKVTVL
# B5: BD55-6260 (protein)
# chain 1: QVQLVQSGAEVKKPGASVKVSCKTSGNTFTSYDVNWLRQATGQGLEWMGWMNPNSGDTGYASKFQGRVTMTRDTSTATAYMELSSLRSEDTAVYYCAGGPSSFYGFRNWFDPWGQGTLVTVSS
# chain 2: DIQMTQSPSSLSASVGDRVTITCRASQSISSYLNWYHQKPGNAPKLLIYGASSLQSGVPSRFSGSGSGTDFTLTISSLQPEDFAIYYCQQSYTTPYTFGQGTKLEIK
# B6: BD55-6291 (protein)
# chain 1: EVQLLESGGGLVQPGGSLRLSCAASGFIFNNYAMSWVRQAPGKGLEWVSDINDSGSRTDYADSVKGRFTISRDNSKNTLYLQMRSLRAEDTAIYYCAKDPSPTYYYDFTRFDNWGQGTLVTVSS
# chain 2: DVVLTQSPLSLPVTLGQPASISCRSSQNLVYADGDTYLNWFQQRPGQSPRRLIYKVSNRDSGVPDRFSGSGSGTDFTLEISRVEAEDVGVYYCMQGSHWPPTFGGGTKVEIK
# B7: BD55-6275 (protein)
# chain 1: QITLKESGPTLVKPTQTLTLTCTFSGFSLTTDAVAVGWIRQPPGKALEWLALVYWDDDKRYSPSLKNRLTITKDTSKNQVVLTMTNMGPVDTGTYYCAHFQDRVGATRVCVFDSWGQGTLVTVSS
# chain 2: QSVLTQPPSVSEAPRQRVTISCSGSSSNIGNNVVSWYQQLPGKAPKLLIYYDDRLPSGVSDRFSGSKSGTSASLAISGLQSEDEADYYCATWDDSLNGVVLGGGTKLTVL
# B8: BD55-6294 (protein)
# chain 1: QVQLQQWGAGLLKPSETLSLTCAVYGGSFSGYFWAWIRQPPGKGLEWIGEINHSGSTNYNPSLKSRVTISADTSESQFSLKVSSVTAADTAMYYCARVGRGYSAYDYYYYYYMDVWGKGTTVTVSS
# chain 2: DVQMTQSPSSLSASVGDRVTITCRASHNITRYLNWYQQKPGRAPNLLIYAASSLQSGVPSRFSGSGSGTDFTLTISSLRPEDFATYYCQLSYSPNTFGQGTKLEIK
# B9: BD55-6274 (protein)
# chain 1: QVQLVQSGAEVKKPGASVKVSCKASGYTFTSYGITWVRQAPGQGLEWMGWIAAYSGHTNYAQKLQDRFTMTRDTSTTTVYMELRSLRSDDTAVYYCARRSGYSGYDREHGKSPGDYFYMDVWGKGTTVTVSS
# chain 2: SYELTQPPSVSVSPGQTARITCSGDALPQKYAYWYQQKSGQAPVLVIYEDTKRPSGIPERFSGSKSGTMATLTISGAQVEDEADYYCYSTYSSADRGVFGGGTALTVL
# B10: BD55-6278 (protein)
# chain 1: QPQLQESGPGLVRPSETVSLTCSVSGGSIGSRSFFWGWIRQPPGKGLEWIGSIYSGGSTSYNPSLNSRATISADTSKNQFSLKLSSVTAADTAVYYCARYGGGDPYFDTWGQGTLVTVSS
# chain 2: DIQMTQSPSTLSASVGDRVTITCRASQSVSRWLAWYQQKPGKAPKLLIYMASILESGVPSRFSGSGSGTEFTLIISSLQPDDFATYYCQQYNSESYTFGQGTKLEIK
# B11: BD55-6282 (protein)
# chain 1: QVQLVQSGAEVKKPGSSVKVSCKASGGIFSNDAFSWVRQAPGQGLEWMGGILPIFHRPNYAQKFQGRLTITADESTSTAYMELSSLRFEDTAIYYCARDQGSIAVAYDAFDVWGQGTMVTVSS
# chain 2: QSVLTQPPSASGTPGQMVTISCSGSSSNIGSNHVYWYQQLPGTAPKLLMDRNNQRPSGVPDRFSGSKSGTSASLAISGLRSEDEADYYCAAWDDSLSGPVFGGGTKLTVL
# B12: BD-508 (protein)
# chain 1: EVQLVESGGGLVQPGGSLRLSCAASGFIVSSNYMTWVRQAPGKGLEWVSVIYSGGSTFYADSVKGRFTISRHNSKNTLFLQMNSLRAEDTAVYYCARDAQNYGMDVWGQGTTVTVSS
# chain 2: DIQMTQSPSSLSASVGDRVTITCRASQSISSYLNWYQQKPGKAPKLLIFAASSLQTGAPSRFSGSGSGTDFTLTISSLQPEDFATYYCQQSYSTPPYTFGQGTKLEIK
# Target: SARS-CoV-2 Omicron BA.1 spike pseudovirus
# Test: pseudovirus neutralization IC50; higher = weaker neutralization
# Description: (§1)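 Single-round VSV luciferase pseudovirus mixed with antibody dilutions for 1 h and put on Huh-7 cells for about a day; IC50 from the dose curve.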
row,Binder,pseudovirus neutralization IC50 [µg/mL]
1,B1,6.49
2,B2,> 10
3,B3,0.00619
4,B4,> 10
5,B5,> 10
6,B6,> 10
7,B7,> 10
8,B8,> 10
9,B9,> 10
10,B10,> 10
11,B11,7.14
12,B12,> 10

# Target: SARS-CoV-2 Omicron BA.2 spike pseudovirus
# Test: as above
# Description: as §1
row,Binder,pseudovirus neutralization IC50 [µg/mL]
1,B1,9.23
2,B2,> 10
3,B3,0.0115
4,B4,> 10
5,B5,> 10
6,B6,> 10
7,B7,> 10
8,B8,> 10
9,B9,> 10
10,B10,> 10
11,B11,> 10
12,B12,> 10

# Target: SARS-CoV-2 Omicron BA.2.75 spike pseudovirus
# Test: as above
# Description: as §1
row,Binder,pseudovirus neutralization IC50 [µg/mL]
1,B1,5.01
2,B2,> 10
3,B3,0.00978
4,B4,> 10
5,B5,> 10
6,B6,> 10
7,B7,> 10
8,B8,> 10
9,B9,> 10
10,B10,> 10
11,B11,> 10
12,B12,> 10

# Target: SARS-CoV-2 Omicron BA.5 spike pseudovirus
# Test: as above
# Description: as §1
row,Binder,pseudovirus neutralization IC50 [µg/mL]
1,B1,2.81
2,B2,> 10
3,B3,> 10
4,B4,> 10
5,B5,> 10
6,B6,> 10
7,B7,> 10
8,B8,> 10
9,B9,> 10
10,B10,> 10
11,B11,> 10
12,B12,> 10

# Target: SARS-CoV-2 Omicron BQ.1.1 spike pseudovirus
# Test: as above
# Description: as §1
row,Binder,pseudovirus neutralization IC50 [µg/mL]
1,B1,3.86
2,B2,> 10
3,B3,> 10
4,B4,> 10
5,B5,> 10
6,B6,> 10
7,B7,> 10
8,B8,> 10
9,B9,> 10
10,B10,> 10
11,B11,> 10
12,B12,> 10

# Target: SARS-CoV-2 Omicron XBB spike pseudovirus
# Test: as above
# Description: as §1
row,Binder,pseudovirus neutralization IC50 [µg/mL]
1,B1,3.47
2,B2,> 10
3,B3,> 10
4,B4,> 10
5,B5,> 10
6,B6,> 10
7,B7,> 10
8,B8,> 10
9,B9,> 10
10,B10,> 10
11,B11,> 10
12,B12,> 10

# Target: SARS-CoV-2 early D614G spike pseudovirus
# Test: as above
# Description: as §1
row,Binder,pseudovirus neutralization IC50 [µg/mL]
1,B1,2.17
2,B2,> 10
3,B3,0.00687
4,B4,> 10
5,B5,> 10
6,B6,> 10
7,B7,> 10
8,B8,> 10
9,B9,> 10
10,B10,> 10
11,B11,0.0134
12,B12,0.0271
